Results taken from ChEMBL document CHEMBL3414532 (J Med Chem, 2015).

Tests used:
[1] = molecular target: T1, Human immunodeficiency virus type 1 reverse transcriptase (Human immunodeficiency virus 1, UniProt Q72547); assay: Inhibition of HIV1 recombinant reverse transcriptase associated catalytically active RNase H domain assessed as reduction in internal cleavage using HTS-1 RNA/DNA duplex substrate by fluorescence assay
[2] = molecular target: T1, Human immunodeficiency virus type 1 reverse transcriptase; assay: Inhibition of reconstituted HIV1 RNase H using RNA/DNA duplex substrate by fluorescence assay
[3] = molecular target: Human immunodeficiency virus type 1 integrase (Human immunodeficiency virus 1, UniProt Q7ZJM1); assay: Inhibition of HIV integrase pre-incubated for 10 mins before DNA substrate addition
In short: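 Strand transfer assay: 1 μM HIV integrase in 10 mM HEPES pH 7.5, 10% glycerol, 10 mM MnCl2, 1 mM DTT, with compound at 0.13–100 μM final in duplicate, preincubated 10 min at 25 °C. Started with biotin/Cy5-labelled oligo duplex, run 30 min at 37 °C, stopped with EDTA. Products captured on streptavidin beads, washed with NaOH, eluted in formamide and read at 635/675. Mean ± SD from at least three experiments.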

[4] = molecular target: T1, Human immunodeficiency virus type 1 reverse transcriptase; assay: Inhibition of HIV1 recombinant reverse transcriptase associated catalytically active RNase H domain assessed as reduction in DNA 3' end directed cleavage using HTS-2 RNA/DNA duplex substrate by fluorescence assay
[5] = molecular target: T1, Human immunodeficiency virus type 1 reverse transcriptase; assay: Inhibition of HIV1 recombinant reverse transcriptase associated catalytically active RNase H domain assessed as reduction in RNA 5' end directed cleavage using HTS-3 RNA/DNA duplex substrate by fluorescence assay
[6] = molecular target: T1, Human immunodeficiency virus type 1 reverse transcriptase; assay: Inhibition of HIV1 recombinant reverse transcriptase polymerase activity using [3H]TTP and poly(rA)-oligo(dT)16 substrate incubated for 20 mins by liquid scintillation spectrometry
In short: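 HIV RT (WT or NNRTI-resistant mutant, 10 nM) added to start reaction with 10 μM [3H]-TTP and 40 nM poly(rA)-oligo(dT)16 in 50 mM Tris-HCl pH 7.4, 60 mM KCl, 5 mM MgCl2; 20 min at 37 °C. Quenched with ice-cold 10% TCA/20 mM sodium pyrophosphate, glass-fiber filtered, washed with TCA and ethanol; incorporation counted by scintillation.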

[7] = Selectivity index, ratio of IC50 for HIV integrase to IC50 for HIV1 recombinant reverse transcriptase associated catalytically active RNase H-mediated domain internal cleavage activity
In short: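 Ratio of HIV integrase strand-transfer IC50 to RNase H IC50 on HTS-1 substrate. Integrase (1 μM) preincubated 10 min at 25 °C with compound (0.13–100 μM final, duplicate) in 10 mM HEPES pH 7.5, 10% glycerol, 10 mM MnCl2, 1 mM DTT; biotin/Cy5 oligo duplex added, 30 min at 37 °C; EDTA stop, streptavidin capture, NaOH washes, formamide elution, 635/675 read.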

[8] = Therapeutic index, ratio of CC50 for human HeLa P4/R5 cells to EC50 for HIV infected in human HeLa P4/R5 cells; format: cell-based; settings: read-out: Ratio CC50/EC50

Row | Compound | IC50 [1] | IC50 [2] | IC50 [3] | IC50 [4] | IC50 [5] | IC50 [6] | Ratio IC50 [7] | selectivity ratio [8]
1 | COc1ccc(-c2ccc(Cc3ccc4c(c3)CC(=O)N(O)C4=O)cc2)cc1 | 3000 nM | 1000 nM | > 100000 nM | 3100 nM | 2000 nM | 2500 nM |  | 
2 | O=C1Cc2cc(Cc3ccc(Cl)cc3)ccc2C(=O)N1O | 3900 nM | 2900 nM |  | 3700 nM | 4000 nM | 3800 nM | 1.1 | 
3 | N#Cc1ccc(-c2ccc(Cc3ccc4c(c3)CC(=O)N(O)C4=O)cc2)cc1 |  |  |  |  |  | 750 nM |  | > 4
4 | NC(=O)c1ccc(-c2ccc(Cc3ccc4c(c3)CC(=O)N(O)C4=O)cc2)cc1 | 2400 nM |  | 9100 nM | 2100 nM | 2900 nM | 2600 nM |  | 
5 | O=C1Cc2cc(Cc3ccc(C4CC4)cc3)ccc2C(=O)N1O |  |  |  |  |  | 1300 nM | 6.3 | 
6 | O=C1Cc2cc(Cc3ccc(-c4ccccc4)cc3)ccc2C(=O)N1O |  |  |  |  |  | 1600 nM |  | 17
7 | CS(=O)(=O)c1ccc(-c2ccc(Cc3ccc4c(c3)CC(=O)N(O)C4=O)cc2)cc1 | 1200 nM | 1200 nM | 11000 nM | 1300 nM | 1400 nM | 1800 nM | 9.2 | 
8 | O=C1Cc2cc(Cc3ccc(Br)cc3)ccc2C(=O)N1O | 1400 nM | 1000 nM | 28000 nM | 1300 nM | 1100 nM | 1500 nM |  | 
9 | O=C1Cc2cc(Cc3ccc(-c4ccc(C(F)(F)F)cc4C(F)(F)F)cc3)ccc2C(=O)N1O | 5100 nM | 2500 nM | 9100 nM | 8700 nM | 5600 nM | 6500 nM |  | 
10 | O=C1Cc2cc(Cc3ccc(-c4ccc(F)cc4)cc3)ccc2C(=O)N1O |  |  |  |  |  | 3700 nM |  | 
11 | O=C1Cc2cc(Cc3ccc(C(F)(F)F)cc3)ccc2C(=O)N1O |  |  |  |  |  | 3300 nM |  | 8
12 | O=C1Cc2cc(Cc3ccc(F)cc3F)ccc2C(=O)N1O | 1600 nM | 1200 nM | 20000 nM | 1500 nM | 1000 nM | 2300 nM |  | 
13 | Cc1ccc(Cc2ccc3c(c2)CC(=O)N(O)C3=O)cc1 | 1200 nM | 900 nM | 36000 nM | 1300 nM | 1100 nM | 2000 nM |  | 
14 | O=C1Cc2cc(Cc3ccc(-c4ccncc4)cc3)ccc2C(=O)N1O | 500 nM |  | 5700 nM | 1300 nM | 1000 nM | 900 nM | 11 | 
